Results as given in PMC3027617.

Chains of the proteins cited; added tags and fusions are not shown. A line that says so, or that is headed by a name, gives the form on record, which may keep a tag or linker.
2F5 monoclonal antibody (human), heavy, as listed by the source, chain 1 of 2: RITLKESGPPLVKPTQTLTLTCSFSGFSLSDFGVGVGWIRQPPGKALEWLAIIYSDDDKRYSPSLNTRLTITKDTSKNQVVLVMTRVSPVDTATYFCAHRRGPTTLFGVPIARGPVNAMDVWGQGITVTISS
2F5 monoclonal antibody (human), light, as listed by the source, chain 2 of 2: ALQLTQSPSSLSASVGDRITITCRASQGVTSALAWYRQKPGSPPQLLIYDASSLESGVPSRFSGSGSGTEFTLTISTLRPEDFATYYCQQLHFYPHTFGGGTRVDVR

Molecular target: 2F5 monoclonal antibody (human)
Test: SPR; Biacore 3000, RT; 2F5 IgG immobilised on a CM5 chip by amine coupling (about 500 RU); ES proteins or peptide as analytes in HEPES-EP buffer (3.9-500 nM for ES5, ES2, ES4; 62.5-2000 nM for ES1; 3.9-250 nM for the peptide); 3 min association at 30 uL/min, 3 min dissociation; 1:1 Langmuir fit …

Substance	Kd [nM]	koff [s⁻¹]	kon [M⁻¹ s⁻¹]
2F5 epitope scaffold ES1 (designed binder)	71.1	–	–
2F5 epitope scaffold ES4 (designed binder)	85.2	0.00299	35100
2F5 epitope scaffold ES5 (designed binder)	41.1	0.000413	–
